## Percent effect of library compounds

Measurements from “University of Dundee, Small-Polar-MMV Screening Library” (2021), ChEMBL document CHEMBL3988442.

Mtb cholesterol medium: 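Phenotypic screen: M. tuberculosis growth, cholesterol and DPPC medium, 4 days; the read-out is not stated. Concentration: 500 µM. Direction is inferred from retests: higher values go with more growth inhibition. About 18,000 compounds were tested under these conditions; 5% (about 900) showed 50% or more at least once.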
Mtb glucose medium: 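Growth of Mycobacterium tuberculosis over 3 days (7H9 medium with glucose and tyloxapol); the read-out is not stated. Tested at 500 µM. The record gives no direction; compounds that gave an IC50 in retests scored well above the rest, so higher reads as more growth inhibition. Size under these conditions: about 18,000 compounds, about 1,400 of them at 50% or above in at least one test.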

Results are given as percent effect. How 0% and 100% were set is not recorded. Most values in the screen are low, and negative values occur. Many other results are left out here, so strong results are more common than in the screen. A dash means the value is not listed here; it may have been measured.

Compound,Mtb cholesterol medium,Mtb glucose medium
c1csc(CNCCCn2ccnc2)c1,-,-0.08727
OCCc1ccoc1,-,4.184
Cn1cc(CC(N)CO)cn1 (stereo unspecified),3.529,-
CN(c1cccc(C(N)=O)c1)S(=O)(=O)c1ccccc1,25.83,35.49
COCCCNCc1ccc2c(c1)n(C)c(=O)n2C,2.643,-
Cc1ccc(C(C)NC(=O)CN2CCNC(=O)C2)cn1 (stereo unspecified),-,-11.75
O=S(=O)(CCNc1cncc(Cl)n1)N1CCSCC1,74.08,78.52
CCn1ncnc1CN1C[C@H]2CC[C@@H](C1)[C@H]2N(C)C,-,-0.3656
O=C1NCC(C(=O)N2CCCCCC2)N1 (stereo unspecified),-,7.85
O=C(Cc1c[nH]c2ncccc12)NCc1cccnc1,-,28.71
CCN1CCN(c2ccc(NC(=O)C(C)C)cc2)CC1,-,-5.102
Cc1ncc(Cn2cc(F)ccc2=O)s1,-,52.86
O=C(CCN1CCC(C(F)(F)F)CC1)N1CCOCC1,-,-4.549
CC(C)(N)c1nc2c(c(=O)[nH]1)CCCCC2,-,7.51
COc1c(C(=O)N2CCN(C)CC2)sc2ccccc12,-,45.1
Cc1cc(NC(C)c2ccco2)nc(N)n1 (stereo unspecified),-,53.05
N#Cc1ccc(-c2nnc(CN3CCC(O)C3)o2)cc1 (stereo unspecified),5.947,-
Cn1c(CNC(=O)C2CCCOC2)nnc1C1CCC1 (stereo unspecified),-,1.037
Cc1cc(C)n(-c2ccc(CNC(=O)C(C)N)cn2)n1 (stereo unspecified),-,40.24
Cc1ccc(S(=O)(=O)Nc2cccc(C)n2)cc1,-,20.29
O=C(Cn1cnnn1)NCC1SCCc2ccccc21 (stereo unspecified),-0.07561,-
NC(=O)c1ccc(-c2nc(C3CCCC3)no2)o1,71.63,69.8
CN(C(=O)CSc1ccccc1Cl)C1CCS(=O)(=O)C1 (stereo unspecified),-,17.99
CC(O)c1nnc[nH]1 (stereo unspecified),-,6.024
NC1COCc2ccccc21 (stereo unspecified),-,-7.812
O=C(CCC(F)(F)F)N[C@@H]1c2ccccc2C[C@@H]1O,-,35.11
CC(C)(C)NC(=O)N1CCCC(CC(N)=O)C1 (stereo unspecified),-,-5.757
NC(=O)c1cnn(Cc2ccc3c(c2)CCC3)c1,-,21.06
CCS(=O)(=O)N1CCC2(CC1)OCCO2,12.37,3.075
CSCC(=O)N1CCCCCC1,-6.266,-
O=C(c1cc(C2CC2)n[nH]1)N1CCC2(CCCO2)CC1,-,51.5
CSCC(CCO)Nc1ncccc1C(F)(F)F (stereo unspecified),33.48,60.41
CN(C)c1ccc(C(=O)N2CCC(O)CC2)cc1,-,12.18
CCN(CCN1CCCC1)C1CCNCC1,-1.071,-
CC1(C)CC(C(=O)NCCNc2cccnc2)CCO1 (stereo unspecified),6.412,-
Cc1cncc(C(N)=O)c1,-3.349,-
Cc1n[nH]c(C)c1NC(=O)CNC(C)C1CCOCC1 (stereo unspecified),-,-2.578
CN(C)CCOc1ccc(C#N)cc1,14.54,12.22
CN(C)Cc1ccccc1CNC(=O)C1CCC1,-2.857,-
Cc1cc(CN)nn1C,-,10.26
Cc1ncccc1CNC(C(N)=O)c1ccc(F)cc1 (stereo unspecified),-13.71,-
NC(=O)C1CCN(Cc2ccc(Br)c3cccnc23)C1 (stereo unspecified),-,17.31
Cc1cccc(NC(=O)c2cccnc2O)n1,-2.135,-
CCOc1ccc(Cn2cccc(C)c2=O)nc1,10.86,35.13
CC(=O)Cc1ccn(C(C)C)n1,-,-7.753
CC(NC(N)=O)C(=O)NCCc1ccc(Cl)cc1 (stereo unspecified),37.68,-
O=C(CNc1ncnc2sccc12)N1CCCC1,-,-8.964
O=C(CC1CCS(=O)(=O)C1)NCCc1ccc(F)cc1 (stereo unspecified),0.956,13.6
CCOC(=O)CN1C(=O)c2ccc(Br)cc2C1=O,-,-4.452
CC(=O)NCCN(C)Cc1ccccc1,-22.25,-
CN1C(=O)C[C@@H](N)[C@@H]1c1ccnn1C,-,5.464
O=C(NCc1cn2cc(Br)ccc2n1)C1CC1,-,-5.358
CSCC(=O)NCc1ccc(C(=O)N(C)C)o1,-,3.74
Cn1ccnc1C1CCCNC1 (stereo unspecified),-,15.91
CCN(CC1CCOC1)C(=O)CN(C)S(C)(=O)=O (stereo unspecified),-15.92,-
Cc1ccc(NC(=O)CN2CCC(O)CC2)c(C)c1,21.56,-
Cc1ccc(NC(=O)CCN2CCN(C)CC2)cc1C,-,31.93
CN(C(=O)Cn1ccccc1=O)C1CCS(=O)(=O)C1 (stereo unspecified),-17.79,-
CS(=O)(=O)Cc1ccc(C(=O)Nc2ccccc2)cc1,-2.463,-2.403
COC1(CN)CCC(C(F)F)CC1 (stereo unspecified),-,7.84
CC(NC(=O)C(C)(C)C)c1ccc(S(C)(=O)=O)cc1 (stereo unspecified),-,8.154
CCO[C@H]1COC[C@@H]1NC(=O)c1occc1C,-,0.2558
CNCc1cc(C(F)(F)F)nn1C,-,9.409
CN(C)CCOc1ccccc1CN,-,50.95
NC1CCCN(c2ccccc2Cl)C1=O (stereo unspecified),-,-0.776
NC(=O)COc1cccc(NC(=O)CSC(F)(F)F)c1,-,25.37
O=C(Cn1cnnn1)NCC1(c2ccccc2)CCC1,-,50.13
CCN(Cc1cccc(F)c1)C(=O)CC1(N)CCC1,-7.791,-

Some entries from above, unchanged:

Result for NC(=O)COc1cccc(NC(=O)CSC(F)(F)F)c1 was Mtb glucose medium: 25.37%.
Result for CCOC(=O)CN1C(=O)c2ccc(Br)cc2C1=O was Mtb glucose medium: -4.452%.
Result for O=C(Cn1cnnn1)NCC1SCCc2ccccc21 (stereo unspecified) was Mtb cholesterol medium: -0.07561%.
Result for N#Cc1ccc(-c2nnc(CN3CCC(O)C3)o2)cc1 (stereo unspecified) was Mtb cholesterol medium: 5.947%.